A mixed list of measured activities; the numbers were collected in NIAID ChemDB.

Common to all: cytotoxicity tests; cell line: VERO; measure: CC50

Blank or dashed fields: not listed here. Conditions beyond the fields shown may differ between rows. CCn: concentration that lowers growth or viability of the cells by n%.

smiles | read by | result
CC1(C)CCCN1CCCN1c2ccccc2Sc2ccc(Cl)cc21.Cl | - | 4.4 µg/mL
Nc1nc(Cl)c2nnn(C[C@H]3CC[C@@H](CO)C3)c2n1 | - | ≥400 µg/mL
Cc1nc([N+](=O)[O-])cn1-c1ccc(Cl)cc1 | - | >62.5 µg/mL
Nc1nccc2c1ncn2[C@@H]1C[C@H](CO)[C@@H](O)[C@H]1O | - | ≥200 µg/mL
CCOC(=O)C(CCSC[C@H]1O[C@@H](n2ccc3c(N)ncnc32)[C@H](O)[C@@H]1O)NC(=O)C(F)(F)F | - | 40 µg/mL
N#Cc1c(-c2ccc(Br)cc2)c2c(=O)[nH]c(=O)[nH]c2[nH]c1=O | - | 150 µg/mL
Cc1cc2c(C(C)C)c(O)c(O)cc2c(O)c1-c1c(C)cc2c(C(C)C)c(O)c(O)cc2c1O | - | 77.4 µM
O=c1[nH]c(=O)n([C@H]2C[C@H](O)[C@@H](CO)O2)cc1/C=C/Br | - | >400 µg/mL
CO/N=C1/C(=O)N(CCOCCOCCOCCN2C(=O)C(=O)c3cc(F)ccc32)c2ccc(C)cc21 | MTT | 62.5 µg/mL
O=S(=O)(O)c1ccc(Cl)c(-c2c3nc(c(-c4c(Cl)ccc(S(=O)(=O)O)c4Cl)c4ccc([n-]4)c(-c4c(Cl)ccc(S(=O)(=O)O)c4Cl)c4ccc([n-]4)c(-c4c(Cl)ccc(S(=O)(=O)O)c4Cl)c4nc2C=C4)C=C3)c1Cl.[Na+] | - | 0.31 µM
O=[N+]([O-])c1ccc(CN2CC3CN(c4cccc(C(F)(F)F)c4)CC3C2)o1 | MTT | >64 µg/mL
Cc1ccnc2c1ccc1c(C)ccnc12 | - | <2.06 µg/mL
CO/N=C1/C(=O)N(CCOCCOCCOCCn2c(O)c(N=O)c3ccccc32)c2ccc(C)cc21 | MTT | 250 µg/mL
CC1=C(C2=C(C)C(=O)c3cccc(O)c3C2=O)C(=O)c2c(O)cccc2C1=O | - | 608 µg/mL
Cc1cc2c(C(C)C)c(O)c(O)c(C=N)c2c(O)c1-c1c(C)cc2c(C(C)C)c(O)c(O)c(C=N)c2c1O | - | 6.6 µM
CCCOc1ccc(Nc2cc(C)nc3ccc(Cl)cc23)cc1 | - | >120 µM
Nc1ncnc2c([C@H]3CC[C@@H](CCl)O3)[nH]nc12 | - | 400 µg/mL
Nc1c2c(-c3ccc(Br)cc3)c3c(=O)[nH]c(=O)[nH]c3nc2nc(=S)n1-c1ccccc1 | - | 50 µg/mL
NC1=Nc2c(ncn2CCCCC(F)(F)P(=O)(O)O)C(=O)C1 | - | ≥250 µM
CCN(CC)CC[n+]1ccc2c(C)c3[nH]c4ccc(O)cc4c3c(C)c2c1 | - | 2.41 µg/mL
Nc1nc2c(nnn2C[C@H]2CC[C@@H](CO)C2)c(=O)[nH]1 | - | ≥400 µg/mL
CCOC(=O)P(=O)(OCCOCn1cnc2c(=O)[nH]c(N)nc21)OC(C)C | - | >2481 µM
Cc1cc(=O)c2c(O)c3c(O)cc(O)c4c5c(O)cc(O)c6c(O)c7c(=O)cc(C)c8c1c2c(c34)c(c65)c78 | - | 10 µg/mL
c1ccc(-c2csc(NC3CCCCC3)n2)nc1 | luminescence | 6 µM
O=C(Nc1ccccc1-c1nn(C(=S)Nc2ccccc2)c(=S)n(C(=S)Nc2ccccc2)c1=O)C(F)(F)F | - | 20 µg/mL
Nc1nc(NC2CC2)c2ncn([C@H]3C=C[C@@H](CO)O3)c2n1 | - | 350 µM
CO/N=C1/C(=O)N(CCOCCOCCOCCn2c(O)c(N=NC(N)=O)c3cc(F)ccc32)c2ccc(F)cc21 | MTT | 62.5 µg/mL
C[C@@]1(CO)[C@H](O)CC[C@@]2(C)[C@H]1CC[C@H]1C[C@@H]3C[C@@]12CC[C@]3(O)CO | - | 50 µg/mL
c1ccc(-c2csc(Nc3cccnc3)n2)nc1 | luminescence | >100 µM
CO/N=C1/C(=O)N(CCOCCOCCOCCN2C(=O)C(=O)c3cc(C)ccc32)c2ccccc21 | MTT | 125 µg/mL
C=C(C)[C@@H]1CC[C@]2(C(=O)O)CC[C@]3(C)C(CCC4[C@@]5(C)CC[C@H](O)C(C)(C)C5CC[C@]43C)C12 | - | 78.5 µg/mL
O=S(=O)(O)c1ccc(-c2c3nc(c(-c4ccc(S(=O)(=O)O)cc4)c4ccc([n-]4)c(-c4ccncc4)c4ccc([n-]4)c(-c4ccc(S(=O)(=O)O)cc4)c4nc2C=C4)C=C3)cc1.[Na+] | - | 0.4 µM
CCO/N=C1/C(=O)N(CCOCCOCCOCCN2C(=O)C(=O)c3ccccc32)c2ccc(C)cc21 | MTT | 125 µg/mL
COc1ccc2c3c([nH]c2c1)C(C)=NCC3 | MTT | 21.43 µg/mL
CC12C(=O)c3cccc(O)c3C(=O)C1CC13OC12C(=O)c1c(O)cccc1C3=O | - | 3.89 µg/mL
CCCCc1ccc(-n2c3nc(=O)n(C)c(=O)c-3nc3ccccc32)cc1 | - | 1.8 µg/mL
Oc1ccc(-c2c3nc(c(-c4ccc(O)cc4)c4ccc([nH]4)c(-c4ccc(O)cc4)c4nc(c(-c5ccc(O)cc5)c5ccc2[nH]5)C=C4)C=C3)cc1 | - | 3.7 µM
c1ccc(-c2csc(Nc3cccc4ccccc34)n2)nc1 | luminescence | 6 µM
CC(C)OC(=O)C(CCSC[C@H]1O[C@@H](n2ccc3c(N)ncnc32)[C@H](O)[C@@H]1O)NC(=O)C(F)(F)F | - | 200 µg/mL
O=C(N/N=C/c1ccc(Cl)c(Cl)c1)c1ccncc1 | - | >62.5 µg/mL
c1cc2c(cnc3c4cc5c(cc4ccc23)OCO5)c2c1OCO2 | sulforhodamine | >0.32 µM
O=C1C2=Nc3ccccc3C(c3c[nH]c4ccccc34)N2c2ccccc21 | MTS | >50 µg/mL
C=C(C)C1CC2=C(O1)C(=O)c1ccccc1C2=O | - | 0.61 µg/mL
CC1=C(C)C(CO)(CO)C[C@H]1n1ccc(N)nc1=O | - | >100 µg/mL
C/C=C/C=N/N(c1nnc(-c2ccccc2)c(-c2ccccc2)n1)S(=O)(=O)c1ccc(C)cc1 | - | 2.4 µg/mL
CCOc1nnc(NS(=O)(=O)c2ccc(N)cc2)o1 | fluorescence | >100 µM
COc1cc([C@@H]2OC[C@@]3(O)[C@@H]2CO[C@H]3c2ccc(O)c(OC)c2)ccc1O | - | 91 µg/mL
COc1ccc2c(C)cc(N/N=C/c3ccc(OC)c4ccccc34)nc2c1 | - | 1.27 µg/mL
COC1c2c(ccc3c2OCO3)-c2ccc3cc4c(cc3c2N1C)OCO4 | sulforhodamine | >3.63 µg/mL
CC1=C(C)[C@](CO)(c2ccccc2)C[C@H]1n1ccc(N)nc1=O | - | >100 µg/mL
Cc1ccc2nc(C)c(C(=O)NCCCC3CCCCC3)n2c1 | resazurin | 102 µM
Cc1cn([C@@H]2O[C@H](CO)C[C@H]2F)c(=O)[nH]c1=O | - | >100 µM
Cc1cccc(C)c1Nc1nc(-c2ccccc2)cs1 | luminescence | >100 µM
O=c1[nH]c(=O)c2c(-c3cccc([N+](=O)[O-])c3)c3c(=O)[nH]cnc3nc2[nH]1 | - | 50 µg/mL
c1ccc(Nc2nc(-c3nccs3)cs2)nc1 | luminescence | 31 µM
CC(C)OC(=O)C(N)CCSC[C@H]1O[C@@H](n2ccc3c(N)ncnc32)[C@H](O)[C@@H]1O | - | 100 µg/mL
CO/N=C1/C(=O)N(CCOCCOCCOCCN2C(=O)C(=O)c3cc(F)ccc32)c2ccc(F)cc21 | MTT | 31.2 µg/mL
CCCC[N+](CCCC)=c1ccc2nc3c(C)cc(N(CC)CC)cc3sc-2c1 | - | <0.26 µg/mL
C=C(C)[C@@H]1CC[C@]2(CO)CC[C@]3(C)C(CCC4[C@@]5(C)CC[C@H](O)C(C)(C)C5CC[C@]43C)C12 | - | 101 µg/mL
O=C1C=CN([C@@H]2O[C@H](CO)[C@@H](O)[C@H]2O)C(=O)C1 | - | 683 µg/mL
CCOC(=O)C(=O)Nc1nc2c(s1)C(=O)c1ccccc1C2=O | - | 2 µg/mL
Cc1cc2c(C(C)C)c(O)c(O)c(C=O)c2c(O)c1-c1c(C)cc2c(C(C)C)c(O)c(O)c(C=O)c2c1O | - | 5.2 µM
CO/N=C1/C(=O)N(CCOCCOCCOCCN2C(=O)C(=O)c3ccccc32)c2ccc(C)cc21 | MTT | 62.5 µg/mL
O=C1CCCN2C(CC1)C[C@]13CN4CCCC/C=C\CC[C@](O)(C=C(c5nccc6c5[nH]c5ccccc56)[C@@H]1CC4)C23 | - | >4.76 µg/mL
CC1CCc2ccccc2N1Cc1nc(-c2ccsc2)no1 | fluorescence | 89.3 µM
c1ccc2c(c1)ccc1c2nc2c3ccccc3[nH]n12 | - | 3.2 µg/mL
CO[C@H]1/C=C/O[C@@]2(C)Oc3c(C)c(O)c4c(O)c(c(/C=N/N5CCN(C)CC5)c(O)c4c3C2=O)NC(=O)/C(C)=C\C=C\[C@H](C)[C@H](O)[C@@H](C)[C@@H](O)[C@@H](C)[C@H](OC(C)=O)[C@@H]1C | MTT | 512 µM
CCCC(=O)c1c(O)c(CC2(C)C(=O)C(C(=O)C(C)CC)=C(O)C(C)=C2O)c(O)c(C)c1OC | - | ≥1 µM
O=C(Nc1nc(-c2ccccn2)cs1)c1ccc([N+](=O)[O-])cc1 | luminescence | 3 µM
C#Cc1c(C(N)=O)ncn1[C@@H]1O[C@H](CO)[C@@H](O)[C@H]1O | - | 0.74 µg/mL
NC1=Nc2c(ncn2CCCCCP(=O)(O)O)C(=O)C1 | - | >250 µM
O=C1C(c2c(O)ccc3nocc23)=Nc2ccccc21 | MTS | >8 µg/mL
Nc1cc2c(ncn2[C@@H]2O[C@H](CO)[C@@H](O)[C@H]2O)c(=O)[nH]1 | neutral red | 30 µg/mL
CCOC(=O)c1ccc(N2N=C3C(=CC(=O)c4ccccc43)SCC2=O)cc1 | - | 10 µg/mL
C[C@H]1[C@H](C)CC[C@]2(C(=O)O)CC[C@]3(C)C(=CC[C@@H]4[C@@]5(C)CC[C@H](O)C(C)(C)[C@@H]5CC[C@]43C)[C@H]12 | - | 46.5 µg/mL
C=CCNC(=S)NNC(=O)c1ccncc1 | - | >62.5 µg/mL
FC(F)(F)c1ccccc1Nc1nc(C23CC4CC(CC(C4)C2)C3)cs1 | luminescence | 39 µM
CN1C(=O)[C@]23CC4=CC=C[C@H](O)[C@H]4N2C(=O)[C@@]1(CO)SS3 | - | 0.46 µg/mL
Nc1nc(Cl)c2ncn(C[C@H]3CC[C@@H](CO)C3)c2n1 | - | ≥40 µg/mL
C=CCCCCCCCCC(=O)NNC(=O)c1ccncc1 | - | >62.5 µg/mL
CN(Cc1nnc(-c2ccco2)o1)Cc1c(F)cccc1Cl | fluorescence | >100 µM
CO[C@H]1/C=C/O[C@@]2(C)Oc3c(C)c(O)c4c(O)c(c(/C=N/N5CCN(C)CC5)c(O)c4c3C2=O)NC(=O)/C(C)=C\C=C\[C@H](C)[C@H](O)[C@@H](C)[C@@H](O)[C@@H](C)[C@H](OC(C)=O)[C@@H]1C | fluorescence | 120 µM
COC(=O)C(=O)C(C(=O)C1=NS(=O)(O)=c2cc(S(N)(=O)=O)c(Cl)cc2=N1)c1nc2ccc(C(=O)c3ccccc3)cc2[nH]c1=O | - | 35.9 µg/mL
COc1c2c(cc3c1-c1cc4c(CO)c5c(cc4c[n+]1CC3)OCO5)OCO2 | sulforhodamine | >3.79 µg/mL
Cn1cc(NC(=O)c2cc(NC(=O)Nc3cc(C(=O)Nc4cc(C(=O)NCCC(N)=[NH2+])n(C)c4)n(C)c3)cn2C)cc1C(=O)NCCC(N)=[NH2+] | - | 130 µg/mL
NC(=O)c1ncn([C@@H]2O[C@H](CO)[C@@H](O)[C@H]2O)c1C#CCO | - | 0.61 µg/mL
Nc1ccn([C@H]2CC[C@@H](CO)O2)c(=O)n1 | - | 50 µM
Cc1ccc(C(=O)N=Nc2c(Cl)c(O)c3ccccc3c2O)cc1 | - | 1.48 µg/mL
CC1=CC(=O)c2c(ccc(-c3ccc4c(c3O)C(=O)C=C(C)C4=O)c2O)C1=O | - | 0.13 µg/mL
O=S(=O)(Nc1nccs1)c1ccc(N=Cc2cn(Cc3ccccc3)c3ccccc23)cc1 | - | >10 µg/mL
CC1=CC(=O)c2c(O)cccc2C1=O | - | 3.73 µg/mL

For reference, 13 entries again:

smiles,read by,result
COc1cc([C@@H]2OC[C@@]3(O)[C@@H]2CO[C@H]3c2ccc(O)c(OC)c2)ccc1O,-,91 µg/mL
O=[N+]([O-])c1ccc(CN2CC3CN(c4cccc(C(F)(F)F)c4)CC3C2)o1,MTT,>64 µg/mL
C=CCNC(=S)NNC(=O)c1ccncc1,-,>62.5 µg/mL
Nc1nc(NC2CC2)c2ncn([C@H]3C=C[C@@H](CO)O3)c2n1,-,350 µM
NC1=Nc2c(ncn2CCCCCP(=O)(O)O)C(=O)C1,-,>250 µM
CCOC(=O)P(=O)(OCCOCn1cnc2c(=O)[nH]c(N)nc21)OC(C)C,-,>2481 µM
C#Cc1c(C(N)=O)ncn1[C@@H]1O[C@H](CO)[C@@H](O)[C@H]1O,-,0.74 µg/mL
CC1=C(C)[C@](CO)(c2ccccc2)C[C@H]1n1ccc(N)nc1=O,-,>100 µg/mL
Cc1cc(=O)c2c(O)c3c(O)cc(O)c4c5c(O)cc(O)c6c(O)c7c(=O)cc(C)c8c1c2c(c34)c(c65)c78,-,10 µg/mL
Cc1ccc(C(=O)N=Nc2c(Cl)c(O)c3ccccc3c2O)cc1,-,1.48 µg/mL
CCN(CC)CC[n+]1ccc2c(C)c3[nH]c4ccc(O)cc4c3c(C)c2c1,-,2.41 µg/mL
O=C1C(c2c(O)ccc3nocc23)=Nc2ccccc21,MTS,>8 µg/mL
CO[C@H]1/C=C/O[C@@]2(C)Oc3c(C)c(O)c4c(O)c(c(/C=N/N5CCN(C)CC5)c(O)c4c3C2=O)NC(=O)/C(C)=C\C=C\[C@H](C)[C@H](O)[C@@H](C)[C@@H](O)[C@@H](C)[C@H](OC(C)=O)[C@@H]1C,fluorescence,120 µM